Results from publication PMC5171792 (Scientific Reports, 2016).

System: A/Malaysia/Muar/33/2009 (H1N1)
Test: Antiviral (virus inhibition) assay in MDCK cells, plaque reduction
Format: cell-based, H1N1 virus
Settings: ratio CC50 / EC50

SMILES | SI
CCOC(=O)/C=C/c1cc(OC)c(OC(C)C)c([N+](=O)[O-])c1 [MY3] | 43
COc1cc(C=O)ccc1O [VN, Vanillin, reference compound] | 109
COc1cc(C=O)cc(N=C(N)N)c1O [MY21, guanidino vanillin] | 281
COc1cc(/C=C/C(=O)O)ccc1O [FA, Ferulic acid, reference compound] | 532
COc1cc(C=O)cc(O)c1O [MY23, 3-hydroxyvanillin] | 15
CCCCOC(=O)/C=C/c1cc(OC)c(O)c([N+](=O)[O-])c1 [MY15] | 373

Same assay, conditions: ratio of CC50 and EC50

SMILES | SI
CCC(CC)O[C@@H]1C=C(C(=O)O)C[C@H](N)[C@H]1NC(C)=O [Oseltamivir carboxylate, reference compound] | 10
